Results of unrelated studies side by side (data: NIAID ChemDB).

Shared fields: toxicity to cultured cells; cell line: VERO; read-out: CC50

Lines come from different laboratories, so protocols vary. CCn: concentration that lowers growth or viability of the cells by n%.

structure,result
COc1ccc(OC)c(/C=N/N=C(/N)NO)c1.Cc1ccc(S(=O)(=O)O)cc1,200 µM
CC[C@@H](C(C)C)[C@H](O)[C@@H](O)[C@@H](C)[C@H]1CC[C@H]2[C@@H]3CC(=O)[C@@]4(O)C[C@@H](OC(C)=O)CC[C@]4(C)[C@H]3CC[C@]12C,461 µM
Cn1cc(C(=O)c2ccc(Cl)cc2)cc1/C=C/C(=O)O,30 µg/mL
OC[C@H]1O[C@@H](n2ccc3c(Cl)ncnc32)[C@H](O)[C@@H]1O,320 µg/mL
CC[C@@H](C(C)C)[C@@H](O)[C@H](O)[C@@H](C)[C@H]1CC[C@H]2[C@@H]3CC(=O)[C@@]4(O)C[C@@H](OC(C)=O)CC[C@]4(C)[C@H]3CC[C@]12C,230 µM
CC(C)[C@H](NC(=O)OCc1ccccc1)C(=O)NC(CC(=O)O)C(=O)CF,>100 µM
CC[C@@H](C(C)C)[C@H](O)[C@@H](O)[C@@H](C)[C@H]1CC[C@H]2[C@@H]3CC(=O)[C@H]4C[C@@H](Br)CC[C@]4(C)[C@H]3CC[C@]12C,343 µM
CC(C)(C)C(=O)OCOP(=O)(COCCn1cnc2c(N)ncnc21)OCOC(=O)C(C)(C)C,>100 µg/mL
CC(=O)O[C@H]1C[C@H](n2ccc(=O)[nH]c2=O)O[C@@H]1COS(=O)(=O)NC(=O)O[C@H]1O[C@H](COC(=O)c2ccccc2)[C@@H](OC(=O)c2ccccc2)[C@H](OC(=O)c2ccccc2)[C@H]1OC(=O)c1ccccc1,300 µg/mL
Nc1nccc2c1ncn2[C@@H]1C[C@H](CO)[C@@H](O)[C@H]1O,>100 µg/mL
O=c1[nH]cnc2c1ccn2[C@@H]1O[C@H](CO)[C@@H](O)[C@H]1O,32 µg/mL
O=C(NS(=O)(=O)OC[C@H]1O[C@@H](n2ccc(=O)[nH]c2=O)[C@H](O)[C@@H]1O)O[C@@H]1C[C@@H](OC(=O)c2ccccc2)[C@H](OC(=O)c2ccccc2)[C@@H](COC(=O)c2ccccc2)O1,300 µg/mL
Nc1ncnc2c1ncn2[C@@H]1O[C@H](CO)[C@@H](O)[C@@H]1O,300 µM
Nc1nccc2c1ncn2[C@@H]1C=C(CO)[C@@H](O)[C@H]1O,>100 µg/mL
Nc1nc(=O)n([C@@H]2C=C(CO)[C@@H](O)[C@H]2O)cc1F,39 µg/mL
COc1cc(/C=N/N=C(/N)NO)cc(OC)c1OC.Cc1ccc(S(=O)(=O)O)cc1,25 µM
Nc1ccn(C[C@H]2COP(=O)(O)CO2)c(=O)n1,80 µg/mL
CN(C)c1ccc(C(=O)c2cc(/C=C/C(=O)O)n(C)c2)cc1,125 µg/mL
O=c1cnn([C@@H]2O[C@H](CO)[C@@H](O)[C@H]2O)c(=O)[nH]1,8 µg/mL
CN[C@H](CC(C)C)C(=O)N[C@H]1C(=O)N[C@@H](CC(N)=O)C(=O)N[C@H]2C(=O)N[C@H]3C(=O)N[C@H](C(=O)N[C@H](C(=O)O)c4cc(O)cc(O)c4-c4cc3ccc4O)[C@H](O)c3ccc(c(Cl)c3)Oc3cc2cc(c3O[C@@H]2O[C@H](CO)[C@@H](O)[C@H](O)[C@H]2O[C@H]2C[C@](C)(N)[C@H](O)[C@H](C)O2)Oc2ccc(cc2Cl)[C@H]1O,>100 µM
OC(c1ccccc1)c1nc2cc(Cl)ccc2s1,500 µg/mL
Nc1ncnc2c1nc(Cl)n2[C@@H]1O[C@H](CO)[C@@H](O)[C@H]1O,18 µM
CC[C@@H](C(C)C)[C@@H](O)[C@H](O)[C@@H](C)[C@H]1CC[C@H]2[C@@H]3CC(=O)[C@H]4C[C@@H](Br)CC[C@]4(C)[C@H]3CC[C@]12C,248 µM
Nc1ccn([C@@H]2O[C@H](CO)[C@@H](O)[C@@H]2O)c(=O)n1,0.8 µM
CC(=O)OC[C@H]1O[C@@H](n2ncc(=O)[nH]c2=S)C(OC(C)=O)C1OC(C)=O,>320 µg/mL
C[C@@]1(O)[C@H](O)[C@@H](COP(=O)(O)OP(=O)(O)OP(=O)(O)O)O[C@H]1n1ccc2c(N)ncnc21,>200 µM
CC[C@@H](C(C)C)[C@H](O)[C@@H](O)[C@@H](C)[C@H]1CC[C@H]2[C@@H]3CC(=O)[C@H]4C[C@H](O)[C@H](O)C[C@]4(C)[C@H]3CC[C@]12C,376 µM
Nc1nccc2c1ncn2[C@@H]1C=C(CO)[C@@H](O)[C@H]1O,0.93 µg/mL
C#CCOc1cc(OC)ccc1-c1cc(N(CC)CC)no1,40 µM
Cc1ccc(S(=O)(=O)O)cc1.N/C(=N/N=C/c1ccc2c(c1)OCO2)NO,25 µM
CC(=O)OC1C(OC(C)=O)[C@@H](COS(=O)(=O)NC(C)C)O[C@H]1n1ccc(=O)[nH]c1=O,352 µg/mL
COc1cc2c(cc1OC)-c1c(OC)c(OC)cc3c1C(C2)N(C(C)=O)CC3,242 µM
CC1(C)OC2C(O1)[C@@H](COS(=O)(=O)NC(=O)O[C@H]1O[C@H](COCc3ccccc3)[C@@H](OCc3ccccc3)[C@H](OCc3ccccc3)[C@H]1OCc1ccccc1)O[C@H]2n1ccc(=O)[nH]c1=O,44 µg/mL
Nc1ccn(C[C@@H](CO)OCP(=O)(O)O)c(=O)n1,>1000 µM
NC(=O)c1[nH]nc([C@@H]2O[C@H](CO)[C@@H](O)[C@H]2O)c1O,3 µg/mL
Cc1cn([C@@H]2O[C@H](CO)[C@@H](O)[C@@H]2F)c(=O)[nH]c1=O,240 µM
CC(=O)OC[C@H]1O[C@@H](n2ncc(=S)[nH]c2=O)C(OC(C)=O)C1OC(C)=O,376 µg/mL
c1ccc(SSc2ccccn2)nc1,>400 µM
CC[C@@H](C(C)C)[C@@H](O)[C@H](O)[C@@H](C)[C@H]1CC[C@H]2[C@@H]3CC(=O)[C@H]4C[C@@H](OC(C)=O)CC[C@]4(C)[C@H]3CC[C@]12C,238 µM
CC(C)NS(=O)(=O)OC[C@H]1O[C@@H](n2ccc(=O)[nH]c2=O)C2OC(C)(C)OC21,304 µg/mL
NC(N)=Nc1ccccc1SSc1ccccc1N=C(N)N,94.4 µM

A second listing of 4 rows from above:

structure	result
COc1cc(/C=N/N=C(/N)NO)cc(OC)c1OC.Cc1ccc(S(=O)(=O)O)cc1	25 µM
NC(N)=Nc1ccccc1SSc1ccccc1N=C(N)N	94.4 µM
CC[C@@H](C(C)C)[C@H](O)[C@@H](O)[C@@H](C)[C@H]1CC[C@H]2[C@@H]3CC(=O)[C@H]4C[C@@H](Br)CC[C@]4(C)[C@H]3CC[C@]12C	343 µM
CC1(C)OC2C(O1)[C@@H](COS(=O)(=O)NC(=O)O[C@H]1O[C@H](COCc3ccccc3)[C@@H](OCc3ccccc3)[C@H](OCc3ccccc3)[C@H]1OCc1ccccc1)O[C@H]2n1ccc(=O)[nH]c1=O	44 µg/mL